The results in this text go back to patent publication US20250042889A1, “3CLPRO PROTEASE INHIBITOR” (SHANGHAI QILU PHARMACEUTICAL RESEARCH AND DEVELOPMENT …, priority 2021, published 2025).

The assay has as its target SARS-COV-2 3CLpro/Mpro protease (Severe acute respiratory syndrome coronavirus 2 (2019-nCoV) (SARS-CoV-2), UniProt P0DTD1). The assay is described as follows: Inhibitory effect on SARS-COV-2 3CLpro/Mpro protease by fluorescence resonance energy transfer. The following applies: read-out: IC50 (nM), Inhibition on SARS-CoV-2 3CLpro/Mpro protease, activity intervals A-D. The procedure: Test Example 1: Evaluation of the Inhibitory Effect of the Compound of the Application on SARS-COV-2 3CL^pro/M^pro Target
In this experiment, the activity of SARS-COV-2 3CL^pro/M^pro protease was detected by fluorescence resonance energy transfer, and the half inhibitory concentration IC50 of the compound on SARS-COV-2 3CL^pro/M^pro protease was obtained.
Novel coronavirus M^pro/3CL^pro inhibitor screening kit (P0315M), purchased from Beyotime Biotechnology:
• 1) The enzyme solution was prepared with reaction buffer, 49.5 μL enzyme solution was added into each well, and 49.5 μL reaction buffer was added into Min-well. • 2) The IC50 of the compound was detected, and the final concentration of the test was starting from 10 μM, 3-fold dilution, 10 concentrations, and each concentration was set up for multiple well testing. […]

Take `CNc1cncc(C(=O)N2CC(Nc3c(C(=O)C4CC5C(C4)C5(C)C)cc(Br)cc3[N+](=O)[O-])C(F)(F)C2)c1` (centres unmarked): the IC50 was in the range of 10 to 50 nM. The same measure for `O=C(c1cc([N+](=O)[O-])cc(Cl)c1N[C@@H]1CCCN(C(=O)c2cncc3ccccc23)C1)N1CCCCC1`: 10 to 50 nM.
